Compound potency records, mixed from different reports. Data source: NIAID ChemDB in PubChem.

Common to all: tests in culture; agent: HIV-1; method: p24 / ELISA; endpoint: EC50

An empty or dashed field is not shown. Rows are shuffled and stem from different studies. ECn is the concentration giving n% inhibition of infection, replication or growth.

structure	cell line	mutations	strain	conditions	result
Cc1cn([C@H]2C[C@H](N=[N+]=[N-])[C@@H](CO)O2)c(=O)[nH]c1=O	Monocytes + Monocyte	-	SF162	-	0.0011 µg/mL
CCN(c1nc(F)ccc1NC(C)(C)C)C1CCN(C(=O)c2cc3cc(NC(=O)N4CCN(C)CC4)ccc3[nH]2)CC1	MT-2	L441P	IIIB	-	0.0261 µM
CCc1cc(NCc2nc3ccccc3o2)c(=O)[nH]c1C	MT-4	-	IIIB	-	<0.2 µM
C(=C1/CNC/C(=C\c2ccco2)C1=NNc1ccccc1)/c1ccco1	MT-2	-	IIIB	-	2.1 µM
CCCCCCCCCCCCCC(=O)O[C@H]1CCC(NC(=O)[C@H](OC)[C@H](O)[C@@H](O)[C@H](O)/C=C/C(C)C)C(=O)NC1	PBMC	-	NL4-3	-	0.032 µM
COc1cc(OC)nc(N2C(=O)CSC2c2c(Cl)cccc2[N+](=O)[O-])n1	PBMC	-	VB51	-	0.003 µg/mL
CC1(C)CC[C@]2(C(=O)O)CC[C@]3(C)C(=CC[C@@H]4[C@@]5(C)CC[C@H](O[C@@H]6OC[C@@H](O)[C@H](OC7O[C@H](CO)[C@H](O)[C@H](O)[C@H]7O)[C@H]6O)C(C)(C)[C@@H]5CC[C@]43C)[C@@H]2C1	PBMC	-	BaL	-	1.25 µg/mL
OCCc1ccc(O)c(O)c1	MT-2	-	NL4-3	-	35.05 µM
CCc1cc(NCc2nc3c(C)ccc(C)c3o2)c(=O)[nH]c1C	H9	-	IIIB	-	<0.15 µM
CCOC(=O)c1ccc(NC(=O)[C@H]2C[C@H](C(C)C)N[C@]23C(=O)Nc2ccc(Br)cc23)cc1	Primary macrophages	-	pNF462	10% FBS	6.8 µM
O=c1cc(O)c2ccccc2o1	ACH-2/HIV-1 + ACH2	-	-	-	10 µM
C[C@H]1O[C@H](Oc2c(-c3ccc(O)cc3)oc3c(c(O)cc4oc(C(C)(C)O)cc43)c2=O)[C@@H](O)[C@@H](O)[C@@H]1O	MT-4	-	NL4-3	-	>20 µg/mL
Cc1ccc(-c2ccc3c(c2)C=C(C(=O)Nc2ccc(C[N+](C)(C)C4CCOCC4)cc2)CCC3)cc1	MT-2	-	-	-	0.0236 µM
Cc1cc(Cl)nc(C)c1C(=O)NCC[C@@H](C)N1CCC(N(Cc2ccsc2)C(=O)Nc2ccc(C(O)O)cc2)CC1	PBMC	-	BaL	-	0.0069 µM
O=c1[nH]cnc2c1ncn2[C@H]1CC[C@@H](CO)O1	CEM-GFP	-	NL4-3	-	0.0275 µM
COc1ccccc1C(=O)CC1(O)C(=O)Nc2ccc(Cl)cc21	C8166	K103N	-	-	75.33 µM
C=C(C)[C@@H]1CC[C@]2(C(=O)OC)CC[C@]3(C)C(CC[C@@H]4[C@@]5(C)C[C@@H](F)[C@H](OC(=O)CC(C)(C)C(=O)O)C(C)(C)[C@@H]5CC[C@]43C)[C@@H]12	MT-4	-	NL4-3	-	>16 µM
CC(C)CN(C[C@@H](O)[C@H](Cc1ccccc1)NC(=O)O[C@H]1CCOC1)S(=O)(=O)c1ccc(N)cc1	MT-2	I401T	IIIB	-	0.0473 µM
CCN(CC)c1ccc(/C=C(\C#N)c2nc3ccccc3[nH]2)cc1	H9	-	-	-	0.00295 µM
Cc1cc(Br)cc(C)c1Oc1cc(Nc2ccc(C#N)cc2)c(N)cc1[N+](=O)[O-]	MT-2	-	RF	-	20.3 µM
COc1ncc(OC)c2c(C(=O)C(=O)N3CCN(C(=O)c4ccccc4)CC3)c[nH]c12	MT-2	-	-	-	0.0041 µM
Cc1cn([C@H]2C[C@H](N=[N+]=[N-])[C@@H](CO)O2)c(=O)[nH]c1=O	MT-4	-	NL4-3	-	0.101 µM
Nc1ccn([C@H]2CC[C@@H](CO)O2)c(=O)n1	MT-2	-	HXB2	-	0.07 µM
CC(C)=CCC[C@@]1(C)[C@@H]2CC[C@]3(C)Oc4cc(C)c(C(=O)O)c(O)c4[C@H]1[C@H]23	H9	-	IIIB	-	0.37 µg/mL
Nc1ccn([C@@H]2O[C@H](CO)C[C@@H]2F)c(=O)n1	PBL	-	IIIB	-	<2 µg/mL
CCc1cc(NCc2nc3c(Cl)ccc(Cl)c3o2)c(=O)[nH]c1C	H9	-	IIIB	-	<0.2 µM
O=C(CC1(O)C(=O)Nc2ccc(Br)cc21)c1ccccc1Cl	C8166	K103N	-	-	184 µM
COc1cc(OC)nc(N2C(=O)CSC2c2c(Cl)cccc2Cl)n1	PBMC	-	N119	-	2.65 µg/mL
Cc1cccc(C(=O)CC2(O)C(=O)Nc3ccc(Br)cc32)c1	C8166	K103N	-	-	>200 µM
Cc1cc(=O)c2ccc(N=C=S)cc2o1	CEM-GFP	-	NL4-3	-	0.1775 µM
C[C@H]1O[C@H](Oc2c(-c3ccc(O)c(O)c3)oc3cc(O)cc(O)c3c2=O)[C@@H](O)[C@@H](O)[C@@H]1O	MT-4	-	NL4-3	-	>20 µg/mL
CCOC(=O)c1ccc(NC(=O)[C@H]2C[C@H](CC(C)C)N[C@]23C(=O)Nc2ccc(C)cc23)cc1	Primary macrophages	-	pNF462	10% FBS	8.9 µM
Cc1cn([C@H]2C[C@H](N=[N+]=[N-])[C@@H](CO)O2)c(=O)[nH]c1=O	MT-2	RT-K65R S68G	HXB2-MT 65+68 (RT K65R S68G)	-	0.005 µM
O=C(CC1(O)C(=O)Nc2ccc(Cl)cc21)c1ccccc1	C8166	K103N	-	-	177 µM
Nc1nc(NC2CC2)c2ncn([C@H]3C=C[C@@H](CO)C3)c2n1	CEM-GFP	-	NL4-3	-	0.0805 µM
CCCCCCCCCCCCCCCCCCCCCCC(=O)O[C@@H]1[C@@H](C)[C@@]2(O)[C@@H](C=C(COC(C)=O)C[C@]3(O)C(=O)C(C)=C[C@@H]23)[C@@H]2C(C)(C)[C@]12O	C8166	-	A17	-	1.303 µM
CC(C)n1nc(-c2ccc3oc(N)nc3c2)c2c(N)ncnc21	PBL	-	BaL	-	0.0105 µM
CCOP(=O)(COc1ccc(C[C@H](NC(=O)O[C@H]2CO[C@H]3OCC[C@H]32)[C@H](O)CN(CC(C)C)S(=O)(=O)c2ccc(OC)cc2)cc1)OCC	MT-2	K112M K113E V128I M200I H219P	IIIB	-	0.008 µM
Cc1nnc(C(C)C)n1C1C[C@H]2CC[C@@H](C1)N2CC[C@H](NC(=O)C1CCC(F)(F)CC1)c1ccccc1	PBMC	-	CC1/85 maraviroc-resistant isolate	-	>20 µM